The target in the assay is EGFR (ERB1), the natural receptor for EGF (Homo sapiens (Human), UniProt P00533 25-1210). As to the kind of experiment: not described.

B1: synthetic NRG-CTB molecule (ligand)
chain: GTSHLVKCPLSHEAYCVNGGECFMVKDLSNPSRYLCKCPNEFTGDRCQNYVMASF
notes: also called NRG-BVN hybrid polypeptide; synthetic NRG-BVN hybrid polypeptide
In the case of B1, the binding result is “no binding”.
